Results of unrelated studies side by side (data: NIAID ChemDB).

Common to all: whole-cell or culture tests; species: Measles virus; read by: plaque count; endpoint: EC50

Lines come from different laboratories, so protocols vary. ECn is the concentration giving n% inhibition of infection, replication or growth.

compound	strain or isolate	cells	value
CC[C@H](/C=C/[C@@H](C)[C@H]1CC[C@H]2[C@@H]3CC=C4C[C@@H](O)CC[C@]4(C)[C@H]3CC[C@]12C)C(C)C	MV/Brazil/001/91	VERO	117 µM
O=c1cnn([C@@H]2O[C@H](CO)[C@@H](O)[C@H]2O)c(=O)[nH]1	Niigata-1	VERO	0.84 µg/mL
CSc1nsc(-c2ccccc2)c1C(=O)O	Edmonston	HEP-2	>500 µg/mL
Nc1cc2[nH]cnc2c(=O)[nH]1	Sugiyama	VERO	1.23 µg/mL
CC[C@@H](C(C)C)[C@H](O)[C@@H](O)[C@@H](C)[C@H]1CC[C@H]2[C@@H]3CC(=O)[C@@]4(O)C[C@H](O)[C@H](O)C[C@]4(C)[C@H]3CC[C@]12C	MV/Brazil/001/91	VERO	58 µM
C#Cc1c(C(N)=O)ncn1[C@@H]1O[C@H](CO)[C@@H](O)[C@H]1O	Toyoshima	VERO	0.9 µg/mL
N#Cc1c(N2CCCC2)nsc1-c1ccccc1	Edmonston	HEP-2	>7 µg/mL
NC(=O)c1ncn([C@@H]2O[C@H](CO)[C@@H](O)[C@H]2O)n1	Yamagata-1	VERO	8.7 µg/mL
NC(=O)c1ncn([C@@H]2O[C@H](CO)[C@@H](O)[C@H]2O)n1	CAM/RB	VERO	49.4 µM
CC[C@@H](C(C)C)[C@@H](O)[C@H](O)[C@@H](C)[C@H]1CC[C@H]2[C@@H]3CC(=O)[C@@]4(O)C[C@@H](Br)CC[C@]4(C)[C@H]3CC[C@]12C	MV/Brazil/001/91	VERO	13 µM
OC[C@H]1O[C@@H]2O[C@H]3[C@H](O)[C@@H](O)[C@@H](O[C@H]4[C@H](O)[C@@H](O)[C@@H](O[C@H]5[C@H](O)[C@@H](O)[C@@H](O[C@H]6[C@H](O)[C@@H](O)[C@@H](O[C@H]7[C@H](O)[C@@H](O)[C@@H](O[C@H]8[C@H](O)[C@@H](O)[C@@H](O[C@H]1[C@H](O)[C@H]2O)O[C@@H]8CO)O[C@@H]7CO)O[C@@H]6CO)O[C@@H]5CO)O[C@@H]4CO)O[C@@H]3CO	Edmonston	VERO	>2560 µM
CCCSc1nsc(-c2ccccc2)c1C(=O)O	Edmonston	HEP-2	>500 µg/mL
CC[C@@H](C(C)C)[C@@H](O)[C@H](O)[C@@H](C)[C@H]1CC[C@H]2[C@@H]3CC(=O)[C@@]4(F)C[C@@H](O)CC[C@]4(C)[C@H]3CC[C@]12C	MV/Brazil/001/91	VERO	75 µM
Nc1ncnc2c1ncn2C[C@@H](CO)OCP(=O)(O)O	Niigata-1	VERO	>200 µg/mL
CC[C@@H](C(C)C)[C@H](O)[C@@H](O)[C@@H](C)[C@H]1CC[C@H]2[C@@H]3CC(=O)[C@@]4(O)C[C@@H](Br)CC[C@]4(C)[C@H]3CC[C@]12C	MV/Brazil/001/91	VERO	4 µM
Nc1nccc2c1ncn2[C@@H]1O[C@H](CO)[C@@H](O)[C@H]1O	Niigata-1	VERO	24 µg/mL
COC(=O)c1c(SC)nsc1-c1ccccc1	Edmonston	HEP-2	>100 µg/mL
CC[C@@H](C(C)C)[C@@H](O)[C@H](O)[C@@H](C)[C@H]1CC[C@H]2[C@@H]3CC(=O)[C@@]4(O)C[C@@H](O)CC[C@]4(C)[C@H]3CC[C@]12C	MV/Brazil/001/91	VERO	30 µM
COc1c(C)c2c(c(O)c1CC(=O)O)C(=O)OC2	Sugiyama	VERO	0.2 µg/mL
Nc1ccn([C@@H]2C[C@H](CO)[C@@H](O)[C@H]2O)c(=O)n1	Niigata-1	VERO	0.95 µg/mL
CN(C)c1nsc(-c2ccccc2)c1C#N	Edmonston	HEP-2	>15 µg/mL
CC[C@H](/C=C/[C@@H](C)[C@H]1CC[C@H]2[C@@H]3CC(=O)[C@H]4C[C@H](O)[C@H](O)C[C@]4(C)[C@H]3CC[C@]12C)C(C)C	MV/Brazil/001/91	VERO	40 µM